A mixed list of measured activities; the numbers were collected in NIAID ChemDB.

ECn: concentration that inhibits the pathogen or its effect by n%. Conditions beyond the fields shown may differ between rows. Percent inhibition refers to the dose given; in toxicity tests it is the harm to the cells. MIC50, MIC90 and the like: level of inhibition, or share of isolates inhibited. ICn is the concentration giving n% inhibition. Blank or dashed fields: not listed here.

| structure | kind | agent | strain or isolate | cells | protein | method | read-out | dose | result |
|---|---|---|---|---|---|---|---|---|---|
| Fc1ccc(N2CCCCC2)c(NC(=S)c2ccncc2)c1 | host protein |  |  |  | PDK1 | kinase activity | inhibition | 10 µM | -8% |
| O=S(=O)([O-])c1cc(S(=O)(=O)[O-])c2cc(NS(=O)(=O)c3ccccc3)ccc2c1 | culture | Rhinovirus |  | Human amnion AV3 cells |  | cytopathic effect | inhibition | 10 µg/mL | 20% |
| CCOC(=O)c1ccc(OCCC2CCN(c3ccc(C)nn3)CC2)cc1 | culture | Rhinovirus | FO2-2317 (ICAM-1 receptor group 68) | KB |  | neutral red | EC50 |  | 0.019 µM |
| Oc1ccccc1N=Cc1ccccc1 | culture | Cryptococcus gattii | 1913 ER |  |  |  | MIC99 |  | 8 µg/mL |
| c1ccc(N2CCN(c3cncc(-c4ccoc4)n3)CC2)cc1 | target | Cytomegalovirus |  |  | UL97 kinase |  | IC50 |  | <10 µM |
| Nc1c(S(=O)(=O)[O-])cc2cc(S(=O)(=O)[O-])ccc2c1O | culture | Adenovirus | TYPE 3 | Human embryonic lung cells |  | cytopathic effect | inhibition | 5 µg/mL | 10% |
| OCc1ccc(-c2cncc(N3CCN(c4cccc(C(F)(F)F)c4)CC3)n2)cc1 | target | Cytomegalovirus |  |  | UL97 kinase |  | inhibition | 10 µM | >15% |
| Nc1ccc2cc([N+](=O)[O-])cc(S(=O)(=O)[O-])c2c1 | culture | Herpes simplex virus |  | Human amnion AV3 cells |  | cytopathic effect | inhibition | 50 µg/mL | 0% |
| C=CCc1ccc(OC)c(OC)c1 | culture | Candida tropicalis | 2778 |  |  | turbidity | MIC90 |  | 340 µg/mL |
| O=S(=O)(O)c1ccc2cc(O)c(S(=O)(=O)O)cc2c1 | culture | Herpes simplex virus |  | Human amnion AV3 cells |  | cytopathic effect | inhibition | 10 µg/mL | 0% |
| Cc1ccc(N2CCN(c3cncc(-c4ccc(C(F)(F)F)cc4)n3)CC2)c(C)c1 | target | Cytomegalovirus |  |  | UL97 kinase |  | inhibition | 10 µM | >15% |
| CCC(CC)O[C@@H]1C=C(C(=O)O)C[C@H](N)[C@H]1NC(C)=O | culture | Influenza A virus | Influenza A/Washington/897/80 (H3N2) | MDCK |  | visual reading | EC50 |  | <0.01 µM |
| Oc1ccc(O)c(C=Nc2ccccc2O)c1 | culture | Cryptococcus gattii | L24/01 |  |  |  | MIC99 |  | 8 µg/mL |
| Cc1cccc(-c2cncc(N3CCN(c4cnccn4)CC3)n2)c1 | target | Cytomegalovirus |  |  | UL97 kinase |  | IC50 |  | <10 µM |
| CCOC(=O)c1c(C)nc(OCCCNc2ccnc3cc(Cl)ccc23)nc1-c1ccccc1 | culture | Cryptococcus neoformans | ATCC 24067 |  |  |  | MIC |  | 5.7 µg/mL |
| O=S(=O)([O-])c1ccc2c(O)cc(S(=O)(=O)[O-])cc2c1 | culture | Adenovirus | TYPE 3 | Human amnion AV3 cells |  | cytopathic effect | inhibition | 10 µg/mL | 0% |
| CCOC(=O)c1c(C)nc(NCCCCNc2ccnc3cc(Cl)ccc23)nc1-c1ccc(F)cc1 | culture | Cryptococcus gattii | 29/10893 |  |  |  | MIC99 |  | 4 µg/mL |
| COc1ccc(N2CCN(c3cncc(-c4cccc(C)c4C)n3)CC2)cc1OC | target | Cytomegalovirus |  |  | UL97 kinase |  | inhibition | 10 µM | >15% |
| Cc1cc(-c2ccc(N=Nc3c(S(=O)(=O)O)cc4cc(S(=O)(=O)O)cc(N)c4c3O)c(C)c2)ccc1N=Nc1c(S(=O)(=O)O)cc2cc(S(=O)(=O)O)cc(N)c2c1O | culture | Herpes simplex virus |  | Human amnion AV3 cells |  | cytopathic effect | inhibition | 50 µg/mL | 100% |

2 of the rows above, restated:

structure	kind	agent	strain or isolate	cells	protein	method	read-out	dose	result
CCC(CC)O[C@@H]1C=C(C(=O)O)C[C@H](N)[C@H]1NC(C)=O	culture	Influenza A virus	Influenza A/Washington/897/80 (H3N2)	MDCK		visual reading	EC50		<0.01 µM
c1ccc(N2CCN(c3cncc(-c4ccoc4)n3)CC2)cc1	target	Cytomegalovirus			UL97 kinase		IC50		<10 µM